The chains behind the UniProt entries cited, without tags or fusion partners. Where a name states a change or a piece, a line headed by the entry shows the natural chain unless it says otherwise.
UniProt P04757, whole entry, looked up: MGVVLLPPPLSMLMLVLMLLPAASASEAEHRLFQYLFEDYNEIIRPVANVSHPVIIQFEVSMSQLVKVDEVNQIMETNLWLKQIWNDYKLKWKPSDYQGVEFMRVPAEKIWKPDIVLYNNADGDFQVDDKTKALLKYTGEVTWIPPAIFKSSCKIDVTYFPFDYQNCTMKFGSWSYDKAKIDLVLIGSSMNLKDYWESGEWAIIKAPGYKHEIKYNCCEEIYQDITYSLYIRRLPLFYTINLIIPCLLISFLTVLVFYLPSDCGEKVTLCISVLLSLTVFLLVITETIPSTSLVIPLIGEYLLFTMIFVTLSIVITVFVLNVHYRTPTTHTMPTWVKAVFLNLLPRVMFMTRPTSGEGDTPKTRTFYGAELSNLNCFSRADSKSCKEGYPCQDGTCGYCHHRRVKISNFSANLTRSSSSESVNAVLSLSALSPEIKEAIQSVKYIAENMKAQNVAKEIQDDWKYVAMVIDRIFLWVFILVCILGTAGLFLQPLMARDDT
UniProt P12392, whole entry, looked up: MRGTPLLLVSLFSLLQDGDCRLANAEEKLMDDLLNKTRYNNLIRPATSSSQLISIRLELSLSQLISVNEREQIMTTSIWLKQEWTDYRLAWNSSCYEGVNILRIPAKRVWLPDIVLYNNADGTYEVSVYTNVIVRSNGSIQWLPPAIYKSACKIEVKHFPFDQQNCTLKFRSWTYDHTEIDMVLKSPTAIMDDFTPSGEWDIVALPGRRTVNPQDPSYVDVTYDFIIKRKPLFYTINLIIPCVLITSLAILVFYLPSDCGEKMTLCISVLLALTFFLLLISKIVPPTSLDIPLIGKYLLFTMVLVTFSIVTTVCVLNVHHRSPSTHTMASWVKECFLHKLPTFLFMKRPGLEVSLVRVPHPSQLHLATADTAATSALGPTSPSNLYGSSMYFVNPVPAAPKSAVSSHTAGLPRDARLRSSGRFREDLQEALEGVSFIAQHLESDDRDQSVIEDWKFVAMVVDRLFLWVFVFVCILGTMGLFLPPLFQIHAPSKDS
UniProt P43143, whole entry, looked up: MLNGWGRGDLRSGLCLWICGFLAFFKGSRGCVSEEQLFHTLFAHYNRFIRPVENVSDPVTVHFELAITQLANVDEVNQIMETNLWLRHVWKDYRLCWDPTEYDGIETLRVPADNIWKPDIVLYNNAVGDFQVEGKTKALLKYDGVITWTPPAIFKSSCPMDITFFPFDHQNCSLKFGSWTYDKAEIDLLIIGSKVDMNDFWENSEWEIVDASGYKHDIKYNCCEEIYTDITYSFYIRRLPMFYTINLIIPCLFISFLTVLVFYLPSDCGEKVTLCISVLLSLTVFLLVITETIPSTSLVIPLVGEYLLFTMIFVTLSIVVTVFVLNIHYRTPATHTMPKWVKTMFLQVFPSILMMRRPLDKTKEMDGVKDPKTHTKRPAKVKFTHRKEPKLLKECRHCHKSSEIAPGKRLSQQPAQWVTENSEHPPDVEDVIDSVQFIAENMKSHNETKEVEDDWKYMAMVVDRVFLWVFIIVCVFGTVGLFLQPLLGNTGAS
UniProt P09483: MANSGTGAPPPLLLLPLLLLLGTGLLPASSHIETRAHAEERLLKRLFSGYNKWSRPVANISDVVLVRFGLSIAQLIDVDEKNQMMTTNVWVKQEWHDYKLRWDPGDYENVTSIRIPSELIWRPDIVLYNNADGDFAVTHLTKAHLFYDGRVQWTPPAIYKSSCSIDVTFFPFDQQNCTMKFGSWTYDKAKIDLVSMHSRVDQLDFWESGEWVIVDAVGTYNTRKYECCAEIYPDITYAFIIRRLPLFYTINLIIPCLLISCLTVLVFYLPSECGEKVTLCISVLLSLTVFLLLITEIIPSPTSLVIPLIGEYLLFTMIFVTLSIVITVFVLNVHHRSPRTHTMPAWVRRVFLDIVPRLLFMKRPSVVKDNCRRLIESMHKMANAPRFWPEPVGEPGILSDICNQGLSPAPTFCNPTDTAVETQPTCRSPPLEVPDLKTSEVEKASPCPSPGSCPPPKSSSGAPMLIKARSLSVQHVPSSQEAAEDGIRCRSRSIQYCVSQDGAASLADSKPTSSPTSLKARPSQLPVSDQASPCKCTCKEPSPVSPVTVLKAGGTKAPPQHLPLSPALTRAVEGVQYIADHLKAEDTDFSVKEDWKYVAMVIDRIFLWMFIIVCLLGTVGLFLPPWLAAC
UniProt Q05941, whole entry, looked up: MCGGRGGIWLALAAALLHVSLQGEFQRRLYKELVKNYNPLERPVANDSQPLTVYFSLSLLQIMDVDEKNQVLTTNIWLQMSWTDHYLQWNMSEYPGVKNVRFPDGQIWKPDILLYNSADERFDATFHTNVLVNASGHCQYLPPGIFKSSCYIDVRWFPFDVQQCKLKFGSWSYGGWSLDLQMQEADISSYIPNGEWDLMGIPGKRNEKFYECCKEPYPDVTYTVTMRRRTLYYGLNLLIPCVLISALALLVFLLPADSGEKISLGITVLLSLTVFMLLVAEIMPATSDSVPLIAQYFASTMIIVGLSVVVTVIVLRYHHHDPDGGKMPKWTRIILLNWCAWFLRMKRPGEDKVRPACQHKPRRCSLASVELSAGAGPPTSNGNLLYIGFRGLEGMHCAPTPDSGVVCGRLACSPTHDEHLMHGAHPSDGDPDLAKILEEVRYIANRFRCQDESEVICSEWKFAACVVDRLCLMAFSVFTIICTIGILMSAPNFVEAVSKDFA
UniProt P43144: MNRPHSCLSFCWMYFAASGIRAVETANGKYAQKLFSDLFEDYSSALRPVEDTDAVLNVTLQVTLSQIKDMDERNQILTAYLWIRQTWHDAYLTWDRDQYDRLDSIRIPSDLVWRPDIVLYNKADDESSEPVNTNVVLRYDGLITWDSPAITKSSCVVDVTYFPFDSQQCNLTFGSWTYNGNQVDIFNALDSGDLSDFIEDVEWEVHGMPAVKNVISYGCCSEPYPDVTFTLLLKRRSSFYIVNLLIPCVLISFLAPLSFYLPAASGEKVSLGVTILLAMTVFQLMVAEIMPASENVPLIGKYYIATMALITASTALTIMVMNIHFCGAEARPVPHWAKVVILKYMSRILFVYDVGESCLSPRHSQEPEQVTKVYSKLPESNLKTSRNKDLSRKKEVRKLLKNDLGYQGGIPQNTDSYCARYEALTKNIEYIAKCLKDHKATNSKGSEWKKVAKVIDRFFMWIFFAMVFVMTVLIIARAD
UniProt Q9JLB5: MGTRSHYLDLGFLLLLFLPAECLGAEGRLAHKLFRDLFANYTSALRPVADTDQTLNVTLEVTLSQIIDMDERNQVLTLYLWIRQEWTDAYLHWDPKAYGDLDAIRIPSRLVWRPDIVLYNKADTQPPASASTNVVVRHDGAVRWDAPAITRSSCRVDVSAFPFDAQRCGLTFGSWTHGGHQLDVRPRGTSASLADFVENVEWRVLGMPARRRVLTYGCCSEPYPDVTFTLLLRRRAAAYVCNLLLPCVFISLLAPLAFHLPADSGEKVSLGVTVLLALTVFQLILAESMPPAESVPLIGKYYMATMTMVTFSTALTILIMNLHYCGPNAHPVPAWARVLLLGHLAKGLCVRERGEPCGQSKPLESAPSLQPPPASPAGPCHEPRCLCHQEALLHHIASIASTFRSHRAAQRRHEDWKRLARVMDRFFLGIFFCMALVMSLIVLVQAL
UniProt P12390, whole entry, looked up: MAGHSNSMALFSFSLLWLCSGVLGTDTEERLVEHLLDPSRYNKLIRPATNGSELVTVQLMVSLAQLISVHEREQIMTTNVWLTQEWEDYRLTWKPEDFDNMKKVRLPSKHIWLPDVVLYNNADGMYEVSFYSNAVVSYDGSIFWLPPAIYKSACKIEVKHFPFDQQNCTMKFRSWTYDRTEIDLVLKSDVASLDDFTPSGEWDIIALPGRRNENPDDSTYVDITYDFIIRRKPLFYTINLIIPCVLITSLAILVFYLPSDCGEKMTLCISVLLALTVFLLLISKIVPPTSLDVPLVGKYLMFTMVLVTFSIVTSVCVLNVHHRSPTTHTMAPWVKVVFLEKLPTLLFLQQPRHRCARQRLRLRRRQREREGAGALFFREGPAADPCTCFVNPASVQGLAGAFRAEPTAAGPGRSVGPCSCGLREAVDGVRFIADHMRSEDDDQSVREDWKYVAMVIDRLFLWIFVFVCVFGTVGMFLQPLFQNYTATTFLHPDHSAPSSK
UniProt P12389: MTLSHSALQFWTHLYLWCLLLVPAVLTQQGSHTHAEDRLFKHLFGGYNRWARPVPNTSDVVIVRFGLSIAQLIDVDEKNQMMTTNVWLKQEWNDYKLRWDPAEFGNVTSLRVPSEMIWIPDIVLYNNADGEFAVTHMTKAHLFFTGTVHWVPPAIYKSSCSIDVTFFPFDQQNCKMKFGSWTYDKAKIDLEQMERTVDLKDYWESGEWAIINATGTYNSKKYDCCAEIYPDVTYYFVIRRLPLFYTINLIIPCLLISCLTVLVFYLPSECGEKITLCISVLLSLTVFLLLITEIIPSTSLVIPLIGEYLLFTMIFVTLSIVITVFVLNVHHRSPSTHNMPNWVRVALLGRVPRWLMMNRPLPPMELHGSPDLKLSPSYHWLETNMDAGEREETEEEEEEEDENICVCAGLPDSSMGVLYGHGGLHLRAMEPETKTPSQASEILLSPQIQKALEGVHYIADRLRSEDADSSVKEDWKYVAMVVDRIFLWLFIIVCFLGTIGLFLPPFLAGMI

In ChEMBL document CHEMBL4196223 (J Med Chem, 2018):

Key:
Rattus norvegicus = species: Rattus norvegicus; test: Selectivity index, ratio of IC50 for antagonist activity at rat alpha6/alpha3beta4 nAChR expressed in Xenopus laevis oocytes to IC50 for antagonist activity at rat alpha3beta4 nAChR expressed in Xenopus laevis oocytes; type: cell-based
[1] = target: Nicotinic acetylcholine receptor alpha6/alpha3/beta4 (Rattus norvegicus) (UniProt P04757+P12392+P43143); test: Antagonist activity at rat alpha6/alpha3beta4 nAChR nACHR expressed in Xenopus laevis oocytes assessed as inhibition of acetyl choline-induced membrane currents at 10 uM pre-incubated for 5 mins prior to acetyl choline pulse at -70 mV potential by two-electrode voltage clamp assay; type: cell-based
[2] = target: Neuronal acetylcholine receptor; alpha4/beta4 (Rattus norvegicus) (UniProt P09483+P12392); test: Antagonist activity at rat alpha4beta4 nACHR expressed in Xenopus laevis oocytes assessed as inhibition of acetyl choline-induced membrane currents at 10 uM pre-incubated for 5 mins prior to acetyl choline pulse at -70 mV potential by two-electrode voltage clamp assay
[3] = target: Neuronal acetylcholine receptor subunit alpha-7 (Rattus norvegicus) (UniProt Q05941); test: Antagonist activity at rat alpha7 nACHR expressed in Xenopus laevis oocytes assessed as inhibition of acetyl choline-induced membrane currents at 10 uM pre-incubated for 5 mins prior to acetyl choline pulse at -70 mV potential by two-electrode voltage clamp assay
[4] = target: Nicotinic acetylcholine receptor alpha9/alpha10 (Rattus norvegicus) (UniProt P43144+Q9JLB5); test: Antagonist activity at rat alpha9alpha10 nACHR expressed in Xenopus laevis oocytes assessed as inhibition of acetyl choline-induced membrane currents at 10 uM pre-incubated for 5 mins prior to acetyl choline pulse at -70 mV potential by two-electrode voltage clamp assay
[5] = target: Neuronal acetylcholine receptor; alpha4/beta2 (Rattus norvegicus) (UniProt P09483+P12390); test: Antagonist activity at rat alpha4beta2 nACHR expressed in Xenopus laevis oocytes assessed as inhibition of acetyl choline-induced membrane currents at 10 uM pre-incubated for 5 mins prior to acetyl choline pulse at -70 mV potential by two-electrode voltage clamp assay
[6] = target: Neuronal acetylcholine receptor; alpha2/beta4 (Rattus norvegicus) (UniProt P12389+P12392); test: Antagonist activity at rat alpha2beta4 nACHR expressed in Xenopus laevis oocytes assessed as inhibition of acetyl choline-induced membrane currents at 10 uM pre-incubated for 5 mins prior to acetyl choline pulse at -70 mV potential by two-electrode voltage clamp assay
[7] = target: Neuronal acetylcholine receptor; alpha3/beta2 (Rattus norvegicus) (UniProt P04757+P12390); test: Antagonist activity at rat alpha3beta2 nACHR expressed in Xenopus laevis oocytes assessed as inhibition of acetyl choline-induced membrane currents at 10 uM pre-incubated for 5 mins prior to acetyl choline pulse at -70 mV potential by two-electrode voltage clamp assay
[8] = target: Neuronal acetylcholine receptor; alpha2/beta2 (Rattus norvegicus) (UniProt P12389+P12390); test: Antagonist activity at rat alpha2beta2 nACHR expressed in Xenopus laevis oocytes assessed as inhibition of acetyl choline-induced membrane currents at 10 uM pre-incubated for 5 mins prior to acetyl choline pulse at -70 mV potential by two-electrode voltage clamp assay

Row | SMILES | Ratio IC50 (Rattus norvegicus) | further results
1 | CC[C@H](C)[C@@H]1NC(=O)[C@@H]2CCCN2C(=O)[C@H](CO)NC(=O)[C@H](CCSC)NC(=O)[C@H](C)NC(=O)[C@@H](CO)NC(=O)[C@@H]2CSSC[C@H](NC(=O)CN)C(=O)N[C@@H](CSSC[C@@H](C(N)=O)NC1=O)C(=O)N[C@@H](CO)C(=O)N[C@@H](Cc1cnc[nH]1)C(=O)N1CCC[C@H]1C(=O)N[C@@H](C(C)C)C(=O)N2 | 4.2 | –
2 | CC[C@H](C)[C@@H]1NC(=O)[C@@H]2CCCN2C(=O)[C@H](CO)NC(=O)[C@H](CCSC)NC(=O)[C@H](C)NC(=O)[C@H]([C@@H](C)O)NC(=O)[C@@H]2CSSC[C@H](NC(=O)CN)C(=O)N[C@@H](CSSC[C@@H](C(N)=O)NC1=O)C(=O)N[C@@H](CO)C(=O)N[C@@H](Cc1cnc[nH]1)C(=O)N1CCC[C@H]1C(=O)N[C@@H](C(C)C)C(=O)N2 | 6.8 | –
3 | CC[C@H](C)[C@@H]1NC(=O)[C@@H]2CCCN2C(=O)[C@H](CO)NC(=O)[C@H](CCSC)NC(=O)[C@H](C)NC(=O)[C@H](CC(C)C)NC(=O)[C@@H]2CSSC[C@H](NC(=O)CN)C(=O)N[C@@H](CSSC[C@@H](C(N)=O)NC1=O)C(=O)N[C@@H](CO)C(=O)N[C@@H](Cc1cnc[nH]1)C(=O)N1CCC[C@H]1C(=O)N[C@@H](C(C)C)C(=O)N2 | 2.1 | –
4 | CCC1NC(=O)[C@@H]2CSSC[C@H](NC(=O)CN)C(=O)N[C@@H](CSSC[C@@H](C(N)=O)NC(=O)[C@H]([C@@H](C)CC)NC(=O)[C@@H]3CCCN3C(=O)[C@H](CO)NC(=O)[C@H](CCSC)NC(=O)[C@H](C)NC1=O)C(=O)N[C@@H](CO)C(=O)N[C@@H](Cc1cnc[nH]1)C(=O)N1CCC[C@H]1C(=O)N[C@@H](C(C)C)C(=O)N2 (some centres not stated) | 3.3 | –
5 | CC[C@H](C)[C@@H]1NC(=O)[C@@H]2CCCN2C(=O)[C@H](CO)NC(=O)[C@H](CCSC)NC(=O)[C@H](C)NC(=O)[C@H](CO)NC(=O)[C@@H]2CSSC[C@H](NC(=O)CN)C(=O)N[C@@H](CSSC[C@@H](C(N)=O)NC1=O)C(=O)N[C@@H](CO)C(=O)N[C@@H](Cc1cnc[nH]1)C(=O)N1CCC[C@H]1C(=O)N[C@@H](C(C)C)C(=O)N2 | 9.4 | –
6 | CC[C@H](C)[C@@H]1NC(=O)[C@@H]2CCCN2C(=O)[C@H](CO)NC(=O)[C@H](CCSC)NC(=O)[C@H](C)NC(=O)[C@H](CCCNC(=N)N)NC(=O)[C@@H]2CSSC[C@H](NC(=O)CN)C(=O)N[C@@H](CSSC[C@@H](C(N)=O)NC1=O)C(=O)N[C@@H](CO)C(=O)N[C@@H](Cc1cnc[nH]1)C(=O)N1CCC[C@H]1C(=O)N[C@@H](C(C)C)C(=O)N2 | 65 | –
7 | CC[C@H](C)[C@@H]1NC(=O)[C@@H]2CCCN2C(=O)[C@H](CO)NC(=O)[C@H](CCSC)NC(=O)[C@H](C)NC(=O)[C@@H](CCCNC(=N)N)NC(=O)[C@@H]2CSSC[C@H](NC(=O)CN)C(=O)N[C@@H](CSSC[C@@H](C(N)=O)NC1=O)C(=O)N[C@@H](CO)C(=O)N[C@@H](Cc1cnc[nH]1)C(=O)N1CCC[C@H]1C(=O)N[C@@H](C(C)C)C(=O)N2 | 8.3 | –
8 | CC[C@H](C)[C@@H]1NC(=O)[C@@H]2CCCN2C(=O)[C@H](CO)NC(=O)[C@H](CCSC)NC(=O)[C@H](C)NC(=O)[C@H](CCCCN)NC(=O)[C@@H]2CSSC[C@H](NC(=O)CN)C(=O)N[C@@H](CSSC[C@@H](C(N)=O)NC1=O)C(=O)N[C@@H](CO)C(=O)N[C@@H](Cc1cnc[nH]1)C(=O)N1CCC[C@H]1C(=O)N[C@@H](C(C)C)C(=O)N2 | – | inhibition [1]: < 50%; inhibition [2]: < 50%; inhibition [3]: < 50%; inhibition [4]: < 50%; inhibition [5]: < 50%; inhibition [6]: < 50%; inhibition [7]: < 50%; inhibition [8]: < 50%
9 | CC[C@H](C)[C@@H]1NC(=O)[C@@H]2CCCN2C(=O)[C@H](CO)NC(=O)[C@H](CCSC)NC(=O)[C@H](C)NC(=O)[C@H](Cc2ccc(O)cc2)NC(=O)[C@@H]2CSSC[C@H](NC(=O)CN)C(=O)N[C@@H](CSSC[C@@H](C(N)=O)NC1=O)C(=O)N[C@@H](CO)C(=O)N[C@@H](Cc1cnc[nH]1)C(=O)N1CCC[C@H]1C(=O)N[C@@H](C(C)C)C(=O)N2 | 2.9 | –
10 | CC[C@H](C)[C@@H]1NC(=O)[C@@H]2CCCN2C(=O)[C@H](CO)NC(=O)[C@H](CCSC)NC(=O)[C@H](C)NC(=O)[C@H](C)NC(=O)[C@@H]2CSSC[C@H](NC(=O)CN)C(=O)N[C@@H](CSSC[C@@H](C(N)=O)NC1=O)C(=O)N[C@@H](CO)C(=O)N[C@@H](Cc1cnc[nH]1)C(=O)N1CCC[C@H]1C(=O)N[C@@H](C(C)C)C(=O)N2 | 46 | –
